Measured values published in BindingDB's records for doi:10.1021/acs.biochem.5b00244 (University of Kentucky, 2015).

Molecular target: T1, Acetyltransferase, GNAT family (Bacillus anthracis, UniProt A0A3P1UAV8)
T1 sequence (A0A3P1UAV8 whole entry): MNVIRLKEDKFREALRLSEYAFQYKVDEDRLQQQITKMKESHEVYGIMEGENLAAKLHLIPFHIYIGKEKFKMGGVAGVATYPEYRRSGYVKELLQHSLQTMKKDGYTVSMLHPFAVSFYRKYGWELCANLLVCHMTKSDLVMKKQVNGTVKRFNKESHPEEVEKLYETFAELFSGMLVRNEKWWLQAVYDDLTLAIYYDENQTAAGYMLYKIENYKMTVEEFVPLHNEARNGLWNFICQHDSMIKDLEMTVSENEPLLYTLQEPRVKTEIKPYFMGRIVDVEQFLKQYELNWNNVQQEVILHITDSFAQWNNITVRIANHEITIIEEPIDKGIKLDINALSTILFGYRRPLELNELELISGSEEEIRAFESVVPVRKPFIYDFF
Settings: pH 8

For [H]/N=C(\N/C(=N/[H])NCCCCCCNC(=N)NC(=N)Nc1ccc(Cl)cc1)Nc1ccc(Cl)cc1 [Chlorhexidine (1)], the IC50 was 14 µM.
